This passage reports Kd results from publication PMC10852988.

Among the targets are S309; P2B-2F6; CR3022; CB6.
Common to all, as to assay: SPR
Details in all cases: domain or fragment

The Kd is the constant that tells how readily two partners part at equilibrium. For the substance “RBD 1 (synthetic homogeneous RBD with sialylated biantennary N-glycans at N331 and N343, linker GGG and Tpep) (from UniProt P0DTC2 319-537)”, the Kd in the experiment with S309 came to 0.00883 µM; with P2B-2F6, 0.123 µM; in the experiment with CR3022, 0.0374 µM.

For the substance “RBD 2 (synthetic homogeneous RBD with asialo biantennary N-glycans at N331 and N343, linker GGG and Tpep) (from UniProt P0DTC2 319-537)”, the values for the Kd with S309 and with P2B-2F6 were 0.00425 µM and 0.0906 µM, respectively.

Turning to “RBD 4 (synthetic homogeneous RBD with asialo biantennary N-glycans at N331 and N343, without Tpep) (from UniProt P0DTC2 319-537)”, the figures for the Kd in the experiment with S309, with CB6 and with CR3022 were 0.00593 µM, 0.0592 µM and 0.0292 µM, respectively.

Take “nonglycosylated RBD 6 (RBD 319–537 with Met at the N-terminus) (from UniProt P0DTC2 319-537)”: the Kd with CB6 was found to be 0.0306 µM; with P2B-2F6 it was 0.0505 µM; with CR3022 it was 0.0117 µM.
